# Measured values published in the supplement of paper PMC9931576.
# Human monoclonal antibodies against the spike receptor-binding domain (heavy:light variable regions). IC50 against pseudoviruses bearing the spike of naturally observed variants; lower = stronger; >10 µg/ml means not reached at the top dose. No active / inactive call. The stated detection limit is 0.0005 µg/ml; values near or below 0.001 µg/ml lie at the floor of the assay.
# B1: BD-613 (protein)
# chain 1: EVQLVESGGGLVQPGGSLRLSCAASGLTVSSNYMSWVRQAPGKGLNWVSVIYSGGSTYYADSVKGRFTISRDNSKNTLYLEMNSLKPEDTAVYYCARLPYGMDVWGQGTTVTVSS
# chain 2: DIQMTQSPSSLSASVGDRVTITCQASQDIRNYLNWYQQKPGKAPKLLIHDASNLETGVPSRFIGSGSGTDFTFTISSLQPEDIATYYCQQYDNLPITFGQGTRLEIK
# B2: BD-827 (protein)
# chain 1: QVRLQESGPGLVKPSGTLSLTCAVSGGSVSSTNWWSWVRQPPGKGLEWIGDIHHGGNTNYSPSLKSRVTISVDRSKNQFSLELNSVTAADTAIYYCAREGLVARGNYFDYWGPGIMVTVS
# chain 2: SYVLTQPPSVSVAPGKTATITCGGTNGGSKTVHWYQQKPGQAPVLVIYFDSDRPSGIPERFSGSNSGNTATLTISWVEAGDEADYYCQVWDSFSAHPDFGGGTKLTVL
# B3: BD-828 (protein)
# chain 1: EVQLVESGGGLVQPGGSLRLSCSASGFIFSSYDMHWVRQAPGKGLEYVSGISSDGDITYYADSVKGRFTMSRDNSKKMLYLQMSSLRADDTAVYYCVKDSPSMIVVVLDYWGQGTLVTVSS
# chain 2: DIQMTQSPSSLSASVGDRVTITCQTSQIIAGYLNWFQQKPGKAPKLLIYAASNLQTGVPSRFSGNGSGTDFTLTISSLQPEDFATYYCQQSYSTPPTFGQGTNVEIK
# B4: BD55-199 (protein)
# chain 1: QITLTESGPALVKPTQTLTLTCSFSGFSLRSTGVGVGWIRQPPGKALEWLALIYWDDDKRYRPSLKSRLTITKDTSKNQVVLTMTNMDPVDTATYYCAHTRARSYYDVLTGYETYYHYYMDVWGKGTTVAVSS
# chain 2: QSVLTQPPSVSAAPGQRVTISCSGNSSNIGNNYVSWYQQHPGTAPKLLIYDNDKRPSGIPDRFSGSKSGTSATLGITGLQATDEADYYCATWDDSLRGVFGGGTRLTVL
# B5: BD-836 (protein)
# chain 1: QVQLVQSGPEVKKPGTSVRVSCKASGFTFSTSAVQWVRQARGQRLEWIGWIAVGSGKTDYLQKFQERVTMTRDESTNTAYMQLSSLRSEDTAVYYCAAPHCSGGTCYDGFDIWGQGTLVTVSS
# chain 2: EIVLTQSPGTLSLSPGERATLSCRASQSVRSGYFAWYQQRPGRAPRLLIYGASSRATAIPDRFSGSGSGTDFTLTINRLEPEDFAVYYCQQYGTSPWTFGQGTKVEIK
# B6: BD-843 (protein)
# chain 1: EVQLVESGGGLVQPGGSLRLSCAASGFTFSSYDMHWVRQASGKGLEWVSAIGTSGDTWYSDSVKGRFTISRENAKNSLSLQMNSLRAGDTAVYYCARVDYDFLTGRSYWFFDLWGRGTLVTVSS
# chain 2: DIQVTQSPSSLSASVGDRVTITCRASQTITRYLNWYQQKPGKAPKLLIYAASSLQSGVPSRFSGSGSGTDFTLTISSLQPEDFATYYCQQSYSAPPFTFGPGTKVDIK
# Target: SARS-CoV-2 Omicron BA.1 spike pseudovirus
# Experiment: pseudovirus neutralization IC50; higher = weaker neutralization
# Protocol: (§1)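 Single-round VSV luciferase pseudovirus mixed with antibody dilutions for 1 h and put on Huh-7 cells for about a day; IC50 from the dose curve.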
row,Binder,pseudovirus neutralization IC50
1,B1,0.0311 µg/mL
2,B2,0.0289 µg/mL
3,B3,> 10 µg/mL
4,B4,> 10 µg/mL
5,B5,0.0383 µg/mL
6,B6,> 10 µg/mL

# Target: SARS-CoV-2 Omicron BA.2 spike pseudovirus
# Experiment: as above
# Protocol: as §1
row,Binder,pseudovirus neutralization IC50
1,B1,0.0611 µg/mL
2,B2,0.0169 µg/mL
3,B3,> 10 µg/mL
4,B4,> 10 µg/mL
5,B5,0.0729 µg/mL
6,B6,> 10 µg/mL

# Target: SARS-CoV-2 Omicron BA.2.75 spike pseudovirus
# Experiment: as above
# Protocol: as §1
row,Binder,pseudovirus neutralization IC50
1,B1,> 10 µg/mL
2,B2,0.032 µg/mL
3,B3,> 10 µg/mL
4,B4,> 10 µg/mL
5,B5,0.00143 µg/mL
6,B6,> 10 µg/mL

# Target: SARS-CoV-2 Omicron BA.5 spike pseudovirus
# Experiment: as above
# Protocol: as §1
row,Binder,pseudovirus neutralization IC50
1,B1,0.819 µg/mL
2,B2,0.0146 µg/mL
3,B3,> 10 µg/mL
4,B4,> 10 µg/mL
5,B5,5.13 µg/mL
6,B6,> 10 µg/mL

# Target: SARS-CoV-2 Omicron BQ.1.1 spike pseudovirus
# Experiment: as above
# Protocol: as §1
row,Binder,pseudovirus neutralization IC50
1,B1,> 10 µg/mL
2,B2,8.16 µg/mL
3,B3,> 10 µg/mL
4,B4,> 10 µg/mL
5,B5,> 10 µg/mL
6,B6,> 10 µg/mL

# Target: SARS-CoV-2 Omicron XBB spike pseudovirus
# Experiment: as above
# Protocol: as §1
row,Binder,pseudovirus neutralization IC50
1,B1,> 10 µg/mL
2,B2,> 10 µg/mL
3,B3,> 10 µg/mL
4,B4,> 10 µg/mL
5,B5,> 10 µg/mL
6,B6,> 10 µg/mL

# Target: SARS-CoV-2 early D614G spike pseudovirus
# Experiment: as above
# Protocol: as §1
row,Binder,pseudovirus neutralization IC50
1,B1,0.0348 µg/mL
2,B2,0.012 µg/mL
3,B3,> 10 µg/mL
4,B4,> 10 µg/mL
5,B5,0.001 µg/mL
6,B6,3.84 µg/mL
